Results of unrelated studies side by side (data: NIAID ChemDB).

Common to all: whole-cell or culture tests; species: Aspergillus flavus; read-out: zone

Neighbouring rows are from separate reports.

compound,strain,method,tested at,result
C[C@@H]1[C@H](O)[C@@H](C)/C=C/C=C/C=C/C=C/C=C/C=C/C=C/[C@H](O[C@@H]2O[C@H](C)[C@@H](O)[C@H](N)[C@@H]2O)C[C@@H]2O[C@](O)(C[C@@H](O)C[C@@H](O)[C@H](O)CC[C@@H](O)C[C@@H](O)CC(=O)O[C@H]1C)C[C@H](O)[C@H]2C(=O)O,-,agar diffusion / agar,30 µg/disc,19 mm
Cc1ccc(N2C(=N)C(=S)N(c3ccc(F)cc3)C2=O)cc1,-,agar diffusion / agar,5 mg/mL,16 mm
COc1ccc(C2C(C#N)=C(N)N=C3Sc4cc(C)ccc4N32)cc1OC,-,agar diffusion,5000 µg/mL,9 mm
N=C1C(=S)N(c2ccc(F)cc2)C(=O)N1c1cc(Cl)c(Cl)cc1Cl,-,agar diffusion / agar,5 mg/mL,16 mm
COc1ccc2[nH]c3nc(NNC(=O)c4ccccc4C(=O)O)c4ccccc4c3c2c1,MTCC-1973,agar diffusion / visual reading,25 µg/mL,5 mm
O=C1NC(=O)C(Cc2nc3ccccc3[nH]2)S1,-,-,20000 µg/mL,<7 mm
Clc1ccc(COC(Cn2ccnc2)c2ccc(Cl)cc2Cl)c(Cl)c1,-,agar diffusion,100 µg/mL,17 mm
CN(C)C=O,-,-,100 µg/mL,6 mm
O=C(CCc1c[nH]c2ccc(Cl)cc12)NCCCc1c[nH]c2ccc(OC(F)(F)F)cc12,NCIM 524,-,25 µg/mL,<10 mm
Cc1ccc2nc3n4c(c5ccccc5c-3c2c1)NN=C(c1ccc(Cl)cc1)C4,MTCC-1973,agar diffusion / visual reading,25 µg/mL,7 mm
Cn1cc(CCC(=O)NCCCc2c[nH]c3ccc(Cl)cc23)c2cc(Cl)ccc21,NCIM 524,-,25 µg/mL,<10 mm
Nc1nc(COC(=O)c2ccccc2)cs1,NCIM No. 524,-,25 µg/mL,<10 mm
COc1ccc2[nH]c3c(c2c1)c1ccccc1c1nnc(C(C)(C)C)n13,MTCC-1973,agar diffusion / visual reading,25 µg/mL,5 mm
Cc1c(N2C(=O)CSC23C(=O)N(CCCCCCBr)c2ccc(F)cc23)c(=O)n(-c2ccccc2)n1C,MTCC 277,agar diffusion,100 µg/mL,14 mm
Cn1cc(CCC(=O)NCc2cn(C)c3ccc(Cl)cc23)c2cc(Cl)ccc21,NCIM 524,-,25 µg/mL,<10 mm
Cc1ccccc1NCc1cc2ccccc2nc1Cl,MTCC 277,agar diffusion,200 µg/mL,7.03 mm
OC(Cn1cncn1)(Cn1cncn1)c1ccc(F)cc1F,MTCC-1973,agar diffusion / visual reading,3.125 µg/mL,12 mm
Cc1ccsc1/C=N/NC(N)=O,-,agar diffusion,250 µg/mL,0 mm
COc1ccc(NCc2cc3ccccc3nc2Cl)cc1,MTCC 277,agar diffusion,200 µg/mL,12.96 mm
Cc1ccc(O)c(O)c1O,-,-,200 µg/mL,12 mm
COc1ccc2nc3n4c(c5ccccc5c-3c2c1)NN=C(c1ccc(C)cc1)C4,MTCC-1973,agar diffusion / visual reading,3.125 µg/mL,13 mm
Cc1ccc2c(c1)sc1nc(=O)cc(C(=O)NN)n12,-,agar diffusion,5000 µg/mL,18 mm
Clc1ccc(NCc2cc3ccccc3nc2Cl)cc1,MTCC 277,agar diffusion,200 µg/mL,16 mm
Cc1ccc2c(c1)C1(C(=O)N2CCCCCCN2C(=O)C3(SCC(=O)N3c3c(C)n(C)n(-c4ccccc4)c3=O)c3cc(F)ccc32)c2c(C)nn(-c3ccccc3)c2Oc2c1c(C)nn2-c1ccccc1,MTCC 277,agar diffusion,100 µg/mL,15 mm
Nc1nc(COC(=O)c2ccccc2[N+](=O)[O-])cs1,NCIM No. 524,-,25 µg/mL,<10 mm
CN(Cc1cc2ccccc2nc1Cl)c1ccc(F)c(Cl)c1,MTCC 277,agar diffusion,200 µg/mL,20.82 mm
N=C1C(=S)N(c2ccc(F)cc2)C(=O)N1c1ccc(Oc2ccc(N3C(=N)C(=S)N(c4ccc(F)cc4)C3=O)cc2)cc1,-,agar diffusion / agar,5 mg/mL,15 mm
O=c1[nH]n(-c2nc3[nH]c4ccc(Cl)cc4c3c3ccccc23)c(=O)c2ccccc12,MTCC-1973,agar diffusion / visual reading,12.5 µg/mL,3 mm
CN(Cc1cc2ccccc2nc1Cl)c1ccc(F)cc1,MTCC 277,agar diffusion,200 µg/mL,17.15 mm
Cc1c(N2C(=O)CSC23C(=O)N(CCCCCCBr)c2ccccc23)c(=O)n(-c2ccccc2)n1C,MTCC 277,agar diffusion,100 µg/mL,0 mm
COc1ccc(C2=NNc3c4ccccc4c4c5cc(OC)ccc5nc-4n3C2)cc1,MTCC-1973,agar diffusion / visual reading,25 µg/mL,6 mm
Clc1ccccc1NCc1cc2ccccc2nc1Cl,MTCC 277,agar diffusion,200 µg/mL,10.6 mm
C[C@H]1[C@H](O)[C@@H](C)/C=C/C=C/C=C/C=C/C=C/C=C/C=C/[C@H](O[C@@H]2O[C@H](C)[C@@H](O)[C@H](N)[C@@H]2O)C[C@@H]2O[C@](O)(C[C@@H](O)C[C@@H](O)CC[C@H](O)[C@@H](O)C[C@@H](O)CC(=O)O[C@H]1C)C[C@H](O)[C@H]2C(=O)O,-,-,20000 µg/mL,16 mm
Nc1nc(COC(=O)c2cccs2)cs1,NCIM No. 524,-,25 µg/mL,<10 mm
N=C1C(=S)N(c2ccc(F)cc2)C(=O)N1c1cc(Cl)cc(Cl)c1,-,agar diffusion / agar,5 mg/mL,14 mm
Cc1nn(-c2ccccc2)c2c1C1(C(=O)N(CCCCCCN3C(=O)C4(SCC(=O)N4c4c(C)n(C)n(-c5ccccc5)c4=O)c4cc(F)ccc43)c3ccc(F)cc31)c1c(C)nn(-c3ccccc3)c1O2,MTCC 277,agar diffusion,100 µg/mL,16 mm
O=C1NC(=O)C(Cc2nc3ccccc3c3nc(=S)[nH]n23)S1,-,-,20000 µg/mL,11 mm
Cc1nn(-c2ccccc2)c2c1C1(C(=O)N(CCCCCCN3C(=O)C4(SCC(=O)N4c4c(C)n(C)n(-c5ccccc5)c4=O)c4ccccc43)c3ccccc31)c1c(C)nn(-c3ccccc3)c1O2,MTCC 277,agar diffusion,100 µg/mL,14 mm
COc1ccc2nc3n4c(c5ccccc5c-3c2c1)NN=C(c1ccc(Cl)cc1)C4,MTCC-1973,agar diffusion / visual reading,3.125 µg/mL,8 mm
Cc1cc(=O)oc2c(C=Nc3cccc4cccc(N=Cc5c(O)ccc6c(C)cc(=O)oc56)c34)c(O)ccc12,MTCC 1883,-,100 µg/mL,9 mm
Cc1ccc2c(c1)C1(C(=O)N2CCCCCCN2C(=O)C3(SCC(=O)N3c3c(C)n(C)n(-c4ccccc4)c3=O)c3cc(C)ccc32)c2c(C)nn(-c3ccccc3)c2Oc2c1c(C)nn2-c1ccccc1,MTCC 277,agar diffusion,100 µg/mL,14 mm

An empty or dashed field is not shown. Zones are inhibition diameters on agar.